Earlier results as cited in patent US11279902B2, “Hyperprotonation cleaning, disinfection, and sterilization compositions and methods” (dated 2022).

Test system: exotoxin production by gram-positive bacteria
Details: at GML concentrations that do not inhibit bacterial growth

For `CCCCCCCCCCCC(=O)OCC(O)CO` (stereo not shown), the exotoxin production is listed as “inhibits exotoxin production”.
